## Share of PSTVd stem 3 variants by leaf site

The pool varies stem 3 of the PSTVd intermediate strain in the pattern GUGGUUCCGNANNCNN; wild type is GUGGUUCCGGAACCGC (upper and lower strand joined, each 5' to 3', the first 8 letters being the upper strand).

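A pool of all variants was put on leaves of three Nicotiana benthamiana plants. Progeny were sequenced from the inoculated region (day 5), the margin of the inoculated leaf (day 10) and systemic leaves (day 12).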

Values are reads per thousand in the sample; higher means more abundant, 0 means not found.
Each value is the mean of three plants.
"Pool" is the share in the plasmid pool used as inoculum, on the same scale.
The inoculated region was read from the minus strand, the other sites from the plus strand.
For reference, wild type rose from 17.3 per thousand in the pool to 330, 345, 235 (inoculated region), 794, 766, 816 (leaf margin) and 830, 792, 869 (systemic leaves).

sequence	pool	inoculated region	leaf margin	systemic leaves
GUGGGUCCGAAUCCGG	0.0154	0	0	0
GUGGGUCCGGAACCGG	0.0154	0	0	0.00811
GUGGUACCGGCACCGC	0.0154	0	0	0
GUGGUUCAGGAGCCAC	0.0154	0	0	0
GUGGUUCAGUAAGCCC	0.0154	0	0	0
GUGGUUCCGAAAGCAC	0.769	0.763	0.0963	0
GUGGUUCCGAAAGCGA	0.831	0.272	0.0241	0
GUGGUUCCGAAAUCCA	0.616	1.97	0.443	0
GUGGUUCCGAACAGGA	1.22	0.301	0.00944	0.0496
GUGGUUCCGAACCCAC	0.816	0.767	0.191	0
GUGGUUCCGAACCCUC	1.29	0.634	0.0106	0.0246
GUGGUUCCGAACCCUU	0.954	0.704	0.567	0.00621
GUGGUUCCGAACGCCG	0.939	0.299	0.0120	0
GUGGUUCCGAACGCGA	0.877	0.428	0.0215	0
GUGGUUCCGAACGCUC	0.908	0.340	0	0
GUGGUUCCGAAGCCAA	1.12	0.803	1.25	1.19
GUGGUUCCGAAGCCGA	0.970	0.787	0.493	0
GUGGUUCCGAAGUCGG	0.739	0.785	0.477	0
GUGGUUCCGCAAACCG	1.52	0.659	0	0.00621
GUGGUUCCGCAAACGC	0.800	0.280	0.0106	0
GUGGUUCCGCAACCCA	1.02	0.320	0.0120	0
GUGGUUCCGCAAGCCU	0.862	0.345	0.0106	0
GUGGUUCCGCAAGCUA	0.754	0.267	0.0200	0
GUGGUUCCGCACACCC	0.877	0.323	0.0215	0
GUGGUUCCGCACCCUA	1.18	0.351	0.0106	0.00615
GUGGUUCCGCACUCAC	0.846	0.627	0.0200	0
GUGGUUCCGCACUCAG	0.908	0.878	0.0241	0
GUGGUUCCGCAGACAA	0.893	0.810	0	0
GUGGUUCCGCAGACGU	0.862	1.25	0.00944	0
GUGGUUCCGCAGACUC	0.831	0.278	0.0200	0
GUGGUUCCGCAGCCCA	0.908	0.332	0.0332	0
GUGGUUCCGCAGCCGG	0.769	0.352	0.0120	0
GUGGUUCCGCAGCCGU	0.831	0.858	0.0226	0.00615
GUGGUUCCGCAGCCUU	0.877	0.723	0.0106	0
GUGGUUCCGCAUCCUG	0.846	0.349	0.00944	0
GUGGUUCCGCAUGCCC	1.66	0.622	0.0295	0
GUGGUUCCGGAAACCU	0.723	0.294	0.00944	0
GUGGUUCCGGAACCCA	0.769	0.335	0.00944	0
GUGGUUCCGGAAUGCG	0.139	0.109	0	0
GUGGUUCCGGACACGU	0.769	0.206	0.0226	0
GUGGUUCCGGACCCGU	0.985	0.240	0.0309	0
GUGGUUCCGGAGACCA	0.877	0.351	0.0120	0
GUGGUUCCGGAGACCU	0.800	1.04	0.0670	0
GUGGUUCCGGAGACGC	0.723	0.258	0.0241	0
GUGGUUCCGGAGGCCU	0.939	0.760	0.0106	0
GUGGUUCCGGAGUCUA	0.893	0.976	0	0
GUGGUUCCGGAUACGA	1.18	0.534	0.0200	0.0311
GUGGUUCCGGAUUCAU	1.00	0.665	0.981	1.08
GUGGUUCCGGCACCGC	0.0923	0.131	0.188	0.221
GUGGUUCCGUAAACGU	1.00	0.319	0.0120	0
GUGGUUCCGUAAUCCU	0.831	0.615	0.0189	0
GUGGUUCCGUACACUU	0.954	0.314	0.0120	0
GUGGUUCCGUACCCUG	0.816	0.383	0.0226	0
GUGGUUCCGUACUCCC	0.831	0.339	0.0226	0
GUGGUUCCGUAGGCCC	0.816	0.335	0.00944	0
GUGGUUCCGUAUACGU	0.877	0.315	0.00944	0
GUGGUUCCGUAUCCUG	0.600	0.283	0.0215	0

With 27,691-54,225 reads a sample, very low values are single reads.
The authors trace changes outside the varied positions to PCR and sequencing errors or to mutation in the plant; presence does not show that a variant is infectious alone.

Source: Wu et al. 2024 (doi:10.1371/journal.ppat.1012142), supplementary data.